Molecular target: F. novicida ClpB (wild-type) (F. novicida)

With F. novicida ClpB (wild-type) the stoichiometry N was 6.

Source: article PMC7182274 (PLoS Pathogens, 2020)
